# Data taken from US20230248844A1, “C[…] ADC OR AN AOC COMPRISING A VHH, AND A SAPONIN OR A LIGAND-SAPONIN CONJUGATE” (SAPREME TECHNOLOGIES B.V., priority 2020, published 2023).
# System: A431 (EGFR++/HER2+/-/CD71+) xenograph tumor
# Test: A431 xenograph nude mouse tumor model, 2T2C (Example 13)
# Assay type: in vivo
# Conditions: 25 mg/kg cetuximab-(Cys-L-SO1861)^4 i.p. + 0.03 mg/kg toxin conjugate i.v., day 9, 14, then 1 dosing per week; cetuximab positive control (FIG. 21)
# Source text: The 2 target 2-components system (2T2C) is the combination treatment of mAb1-SO1861 and mAb2-protein toxin, (FIG. 1B-D).
substance,measurement,value
Cetuximab: monoclonal antibody recognizing and binding human EGFR [reference compound],tumor response,"only tumor growth inhibition, but no regression"
